PubChem BioAssay AID504761, Drosophila RNAi Screening Center, 2011
Assay: 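Insect host genes that dengue virus relies on to spread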 (primary screen). Cell system: D.Mel-2 cells from Drosophila. Reagents: long dsRNA against Drosophila genes. Treatment: infection with dengue virus type 2; dose and infection time not stated. Measurement: 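Cells stained for dengue envelope protein and imaged; percent of infected cells per well on duplicate plates, ranked by infection, with stained nuclei counted for cell number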. Reading the numbers: infection score: higher = more virus-infected cells; cell count: higher = more cells in the well. Call rule: 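Very low infection ranking in both replicate wells (chance probability at most 0.065), then a retest showing infection dropped 1.5-fold or more at p below 0.05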. Meaning of the calls: active = confirmed: knock-down lowers infection; inactive = not picked or not confirmed.
In all, the deposit lists about 22,000 reagents; this is an unselected part of those with a known target gene and a result. In the full data, 116 (0.52%) are marked active. 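Calls depend on retest data that are not deposited; infection was ranked per plate without normalising between plates; the unit of the infection score is not given.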 Raw values are not corrected between plates. Entries without a mark were called inactive. The numbers tell different reagents against one gene apart. Not all columns of the deposit are shown. Not given: the amount of reagent, the time to read-out.

Target gene,reagent,"infection score, replicate 1","infection score, replicate 2","cell count, replicate 1"
Sirt4 (Sirtuin 4),1,7.95,7.85,6198
Sirt4 (Sirtuin 4),2,9.99,21.5,6449
Ank (Ankyrin),1,17.3,4.93,6663
Ank (Ankyrin),2,26.4,8.14,5297
MME1 (Mitochondrial Magnesium Exporter 1),1,7.33,1.27,5891
Diedel,1,4.28,3.59,5496
Diedel,2,4.4,4.92,6846
Ras85D (Ras oncogene at 85D),1,1.66,7.3,6693
CG11438,1,10.1,4.8,6538
Recs1,1,4.28,7.37,6208
cher (cheerio),1,6.91,10.4,6917
cher (cheerio),2,2.85,7.32,6922
usp (ultraspiracle),1,4.42,1.14,5405
usp (ultraspiracle),2,1.73,0.82,5847
CG15579,1,13.4,7.1,5856
smash (smallish),1,15.7,22,2578
smash (smallish),2,7.44,16,6334
CG11309,1,1.79,14.1,6416
CG11309,2,21.4,24.9,5480
CG14330,1,2.58,1.23,6193
Bem46,1,9.72,10.6,6348
CG1773,1,3.88,6.65,5745
CG9147,1,,4.94,72
CG9147,2,10.3,4.21,6862

Reformatted: 4 of the entries above.
{"Target gene":"Diedel","reagent":1,"infection score, replicate 1":4.28,"infection score, replicate 2":3.59,"cell count, replicate 1":5496}
{"Target gene":"Diedel","reagent":2,"infection score, replicate 1":4.4,"infection score, replicate 2":4.92,"cell count, replicate 1":6846}
{"Target gene":"Ras85D (Ras oncogene at 85D)","reagent":1,"infection score, replicate 1":1.66,"infection score, replicate 2":7.3,"cell count, replicate 1":6693}
{"Target gene":"CG11438","reagent":1,"infection score, replicate 1":10.1,"infection score, replicate 2":4.8,"cell count, replicate 1":6538}
